Reference: PMC5469503 (PLoS Pathogens, 2017)

Molecular target: SidK(16-278), N-terminal domain of SidK (L. pneumophila strain Philadelphia 1)

With SidK(16-278), N-terminal domain of SidK the percent eluting as apparent dimer was 10% and the percent eluting as monomer was 90%.
